# Assay: density and max drug loading of antimicrobial agents considered for carrier particles
# Type: physicochemical
# Settings: Table 7
row,Structure (SMILES),Max Drug Loading
1,NCC[C@H](O)C(=O)N[C@@H]1C[C@H](N)[C@@H](O[C@H]2O[C@H](CN)[C@@H](O)[C@H](O)[C@H]2O)[C@H](O)[C@H]1O[C@H]1O[C@H](CO)[C@@H](O)[C@H](N)[C@H]1O [Amikacin],18%
2,C[C@@H](O)[C@H]1C(=O)N2C(C(=O)O)=C(S[C@@H]3CN[C@H](C(=O)N(C)C)C3)[C@H](C)[C@H]12 [Meropenem],21%
3,CO[C@@]1(NC(=O)Cc2cccs2)C(=O)N2C(C(=O)O)=C(COC(N)=O)CS[C@@H]21 [Cefoxitin],18%
4,[H]/N=C(\N/C(=N/[H])NCCCCCCNC(=N)NC(=N)Nc1ccc(Cl)cc1)Nc1ccc(Cl)cc1 [Chlorohexidine],28%
5,CC(C)(O/N=C(\C(=O)N[C@@H]1C(=O)N2C(C(=O)[O-])=C(C[n+]3ccccc3)CS[C@H]12)c1csc(N)n1)C(=O)O [Ceftazidime],18%
6,NC[C@H]1O[C@H](O[C@H]2[C@H](O)[C@@H](O[C@H]3O[C@H](CO)[C@@H](O)[C@H](N)[C@H]3O)[C@H](N)C[C@@H]2N)[C@H](N)C[C@@H]1O [Tobramycin],20%
7,C[C@@H](O)[C@H]1C(=O)N2C(C(=O)O)=C(S[C@@H]3CN[C@H](C(=O)Nc4cccc(C(=O)O)c4)C3)[C@H](C)[C@H]12 [Ertapenem],18%
8,CO/N=C(\C(=O)N[C@@H]1C(=O)N2C(C(=O)[O-])=C(C[N+]3(C)CCCC3)CS[C@H]12)c1csc(N)n1 [Cefepime],18%
9,C[C@H]1[C@H](NC(=O)/C(=N\OC(C)(C)C(=O)O)c2csc(N)n2)C(=O)N1S(=O)(=O)O [Aztreoman],16%
